Results taken from article PMC11822712, “Improving the Activity and Selectivity of a Scorpion-Derived Peptide, A3a, against Acinetobacter baumannii through Rational Design” (ACS Omega, 2025).

Assays:
G. mellonella larvae = assay: G. mellonella burn model, toxicity in burnt uninfected larvae; format: in vivo, Galleria mellonella; details: 12.5 mg/kg topical on burn, 96 h, 37 °C, n = 30
Experimental: Standardized G. mellonella larvae were obtained from the FABI Biocontrol center at the University of Pretoria. The larvae were at the life cycle stage not requiring feeding. Prior to use, larvae were sorted into Petri dishes (10 larvae per plate) lined with Whatman filter paper (Fisher, UK) and stored at 28 °C until use. A burn was induced with a heated nail head to achieve a burn wound area of approximately 2 mm^2. Immediately after burn, the wound was inoculated with a single colony of A. baumannii NICD 15283 applied directly to the burn site with an inoculation loop. Peptides were prepared in PBS to final concentrations of 12.5 mg/kg and 15 mg/kg based on the average weight of the group of larvae treated. The peptides were applied topically 1 h after infection by applying a 5 μL drop directly to the burned area. Untreated controls received 5 μL of PBS or polymyxin B (10 mg/kg) instead. Larvae were left at 37 °C and survival was monitored over 96 h. Mortality was recorded as complete melanization of the larval body and complete loss of motility. Three independent experiments were conducted on three different occasions using 10 larvae per treatment/control group (n = 30).

HaCat cell = details: from HaCat IC50 values ref 14; cited from earlier work
Experimental: Previously, we amidated the C-terminus of A3 to improve its activity against Gram-negative bacteria.[14] A3, the amidated analogue A3a, and the parent peptide AamAP1 were evaluated for antibacterial activity against a panel of ESKAPE pathogens.

## CC[C@H](C)[C@H](NC(=O)[C@H](C)NC(=O)[C@H](CCCCN)NC(=O)[C@H](CCCNC(=N)N)NC(=O)[C@@H](NC(=O)[C@H](CC(C)C)NC(=O)[C@H](CO)NC(=O)[C@H](Cc1ccccc1)NC(=O)[C@H](CC(C)C)NC(=O)[C@@H](N)Cc1ccccc1)[C@@H](C)CC)C(=O)NCC(=O)NCC(=O)N[C@@H](CC(C)C)C(=O)N[C@@H](Cc1c[nH]c2ccccc12)C(=O)N[C@@H](CO)C(=O)N[C@@H](C)C(=O)N[C@@H](Cc1ccccc1)C(=O)N[C@@H](CCCCN)C(N)=O [A3a[I14W]]
G. mellonella larvae
  survival of burnt but uninfected larvae: 46.7%

## CC[C@H](C)[C@H](NC(=O)[C@H](C)NC(=O)[C@H](CCCCN)NC(=O)[C@H](CCCCN)NC(=O)[C@@H](NC(=O)[C@H](CC(C)C)NC(=O)[C@H](CO)NC(=O)[C@H](Cc1ccccc1)NC(=O)[C@H](CC(C)C)NC(=O)[C@@H](N)Cc1ccccc1)[C@@H](C)CC)C(=O)NCC(=O)NCC(=O)N[C@@H](CC(C)C)C(=O)N[C@H](C(=O)N[C@@H](CO)C(=O)N[C@@H](C)C(=O)N[C@@H](Cc1ccccc1)C(=O)N[C@@H](CCCCN)C(N)=O)[C@@H](C)CC [A3a[R7K]]
G. mellonella larvae
  survival of burnt but uninfected larvae: 56.7%

## CC[C@H](C)[C@H](NC(=O)[C@H](C)NC(=O)[C@H](CCCCN)NC(=O)[C@H](CCCNC(=N)N)NC(=O)[C@@H](NC(=O)[C@H](CC(C)C)NC(=O)[C@H](CO)NC(=O)[C@H](Cc1ccccc1)NC(=O)[C@H](CC(C)C)NC(=O)[C@@H](N)Cc1ccccc1)[C@@H](C)CC)C(=O)NCC(=O)NCC(=O)N[C@@H](CC(C)C)C(=O)N[C@H](C(=O)N[C@@H](CO)C(=O)N[C@@H](C)C(=O)N[C@@H](Cc1ccccc1)C(=O)N[C@@H](CCCCN)C(N)=O)[C@@H](C)CC [A3a]
HaCat cell
  decrease in cytotoxicity compared with A3: > 2 fold
G. mellonella larvae
  survival of burnt but uninfected larvae: 80%
